A mixed list of measured activities; the numbers were collected in NIAID ChemDB.

Shared fields: tests in culture; species: Aspergillus fumigatus; endpoint: MIC90

Conditions beyond the fields shown may differ between rows. MIC50, MIC90 and the like: level of inhibition, or share of isolates inhibited. Blank or dashed fields: not listed here.

{"structure": "CC(=O)N1CCN(c2ccc(OC[C@H]3CO[C@](Cn4ccnc4)(c4ccc(Cl)cc4Cl)O3)cc2)CC1", "strain or isolate": "25 isolates", "result": "4 µg/mL"}
{"structure": "CCCCCOc1ccc(-c2cc(-c3ccc(C(=O)N[C@H]4C[C@@H](O)[C@@H](O)NC(=O)[C@@H]5[C@@H](O)[C@@H](C)CN5C(=O)[C@H]([C@H](O)CC(N)=O)NC(=O)[C@H]([C@H](O)[C@@H](O)c5ccc(O)c(OS(=O)(=O)O)c5)NC(=O)[C@@H]5C[C@@H](O)CN5C(=O)[C@H]([C@@H](C)O)NC4=O)cc3)no2)cc1", "strain or isolate": "17 isolates", "result": "≤0.0078 µg/mL"}
{"structure": "CCC(C)n1ncn(-c2ccc(N3CCN(c4ccc(OC[C@H]5CO[C@](Cn6cncn6)(c6ccc(Cl)cc6Cl)O5)cc4)CC3)cc2)c1=O", "strain or isolate": "17 isolates", "result": "0.25 µg/mL"}
{"structure": "C[C@H]1[C@H](O)[C@@H](C)/C=C/C=C/C=C/C=C/C=C/C=C/C=C/[C@H](O[C@@H]2O[C@H](C)[C@@H](O)[C@H](N)[C@@H]2O)C[C@@H]2O[C@](O)(C[C@@H](O)C[C@@H](O)CC[C@H](O)[C@@H](O)C[C@@H](O)CC(=O)O[C@H]1C)C[C@H](O)[C@H]2C(=O)O", "strain or isolate": "35 isolates", "result": "2 µg/mL"}
{"structure": "CCC(C)n1ncn(-c2ccc(N3CCN(c4ccc(OC[C@H]5CO[C@](Cn6cncn6)(c6ccc(Cl)cc6Cl)O5)cc4)CC3)cc2)c1=O", "strain or isolate": "94 isolates", "result": "0.4 µg/mL"}
{"structure": "C[C@H]1[C@H](O)[C@@H](C)/C=C/C=C/C=C/C=C/C=C/C=C/C=C/[C@H](O[C@@H]2O[C@H](C)[C@@H](O)[C@H](N)[C@@H]2O)C[C@@H]2O[C@](O)(C[C@@H](O)C[C@@H](O)CC[C@H](O)[C@@H](O)C[C@@H](O)CC(=O)O[C@H]1C)C[C@H](O)[C@H]2C(=O)O", "strain or isolate": "62 isolates", "result": "0.5 µg/mL"}
{"structure": "C[C@@H](c1ncncc1F)[C@](O)(Cn1cncn1)c1ccc(F)cc1F", "strain or isolate": "256 isolates", "result": "0.5 µg/mL"}
{"structure": "C[C@@H](c1ncncc1F)[C@](O)(Cn1cncn1)c1ccc(F)cc1F", "strain or isolate": "3 clinical isolates", "result": "1 µg/mL"}
{"structure": "Clc1ccc(COC(Cn2ccnc2)c2ccc(Cl)cc2Cl)c(Cl)c1", "strain or isolate": "25 isolates", "result": "4 µg/mL"}
{"structure": "CCC(C)n1ncn(-c2ccc(N3CCN(c4ccc(OC[C@H]5CO[C@](Cn6cncn6)(c6ccc(Cl)cc6Cl)O5)cc4)CC3)cc2)c1=O", "strain or isolate": "256 isolates", "result": "2 µg/mL"}
{"structure": "C[C@@H](c1nc(-c2ccc(C#N)cc2)cs1)[C@](O)(Cn1cncn1)c1cc(F)ccc1F", "strain or isolate": "62 isolates", "result": "2 µg/mL"}
{"structure": "C[C@@H](c1nc(-c2ccc(C#N)cc2)cs1)[C@](O)(Cn1cncn1)c1ccc(F)cc1F", "strain or isolate": "314 isolates", "result": "1 µg/mL"}
{"structure": "C[C@@H](c1nc(-c2ccc(C#N)cc2)cs1)[C@](O)(Cn1cncn1)c1ccc(F)cc1F", "strain or isolate": "256 isolates", "result": "0.5 µg/mL"}
{"structure": "C[C@@H](c1ncncc1F)[C@](O)(Cn1cncn1)c1ccc(F)cc1F", "strain or isolate": "25 isolates", "result": "0.25 µg/mL"}
{"structure": "Nc1[nH]c(=O)ncc1F", "strain or isolate": "17 isolates", "result": "64 µg/mL"}
{"structure": "CCC(C)n1ncn(-c2ccc(N3CCN(c4ccc(OC[C@H]5CO[C@](Cn6cncn6)(c6ccc(Cl)cc6Cl)O5)cc4)CC3)cc2)c1=O", "strain or isolate": "150 clinical isolates", "result": "0.25 µg/mL"}
{"structure": "C[C@H]1[C@H](O)[C@@H](C)/C=C/C=C/C=C/C=C/C=C/C=C/C=C/[C@H](O[C@@H]2O[C@H](C)[C@@H](O)[C@H](N)[C@@H]2O)C[C@@H]2O[C@](O)(C[C@@H](O)C[C@@H](O)CC[C@H](O)[C@@H](O)C[C@@H](O)CC(=O)O[C@H]1C)C[C@H](O)[C@H]2C(=O)O", "strain or isolate": "35 isolates", "result": "2 µg/mL"}
{"structure": "CCN1CCC(O)(/C=C/c2ccc(Cl)cc2)C(C(=O)/C=C/c2ccc(Cl)cc2)C1", "strain or isolate": "28 strains (itraconazole-resistant)", "result": "5.84 µg/mL"}
{"structure": "C[C@@H](c1ncncc1F)[C@](O)(Cn1cncn1)c1ccc(F)cc1F", "strain or isolate": "28 isolates", "result": "0.12 µg/mL"}
{"structure": "C[C@@H](c1ncncc1F)[C@](O)(Cn1cncn1)c1ccc(F)cc1F", "result": "0.5 µg/mL"}
{"structure": "CCC(C)n1ncn(-c2ccc(N3CCN(c4ccc(OC[C@H]5CO[C@](Cn6cncn6)(c6ccc(Cl)cc6Cl)O5)cc4)CC3)cc2)c1=O", "strain or isolate": "12 strains", "result": "1 µg/mL"}
{"structure": "C[C@@H](c1ncncc1F)[C@](O)(Cn1cncn1)c1ccc(F)cc1F", "result": "0.2 µg/mL"}
{"structure": "CC(=O)OCC1C=C(c2cccc(Cl)c2)C(=O)O1", "strain or isolate": "12 isolates", "result": "2 µg/mL"}
{"structure": "C[C@H]1[C@H](O)[C@@H](C)/C=C/C=C/C=C/C=C/C=C/C=C/C=C/[C@H](O[C@@H]2O[C@H](C)[C@@H](O)[C@H](N)[C@@H]2O)C[C@@H]2O[C@](O)(C[C@@H](O)C[C@@H](O)CC[C@H](O)[C@@H](O)C[C@@H](O)CC(=O)O[C@H]1C)C[C@H](O)[C@H]2C(=O)O", "result": "0.5 µg/mL"}
{"structure": "CCC(C)n1ncn(-c2ccc(N3CCN(c4ccc(OC[C@H]5CO[C@](Cn6cncn6)(c6ccc(Cl)cc6Cl)O5)cc4)CC3)cc2)c1=O", "strain or isolate": "25 isolates", "result": "2 µg/mL"}
{"structure": "CCC(C)CC(C)CCCCCCCCC(=O)N[C@H]1C[C@@H](O)[C@H](NCCN)NC(=O)[C@@H]2[C@@H](O)CCN2C(=O)[C@H]([C@H](O)CCN)NC(=O)[C@H]([C@H](O)[C@@H](O)c2ccc(O)cc2)NC(=O)[C@@H]2C[C@@H](O)CN2C(=O)[C@H]([C@@H](C)O)NC1=O", "strain or isolate": "25 isolates", "result": "0.5 µg/mL"}
{"structure": "C[C@H]1[C@H](O)[C@@H](C)/C=C/C=C/C=C/C=C/C=C/C=C/C=C/[C@H](O[C@@H]2O[C@H](C)[C@@H](O)[C@H](N)[C@@H]2O)C[C@@H]2O[C@](O)(C[C@@H](O)C[C@@H](O)CC[C@H](O)[C@@H](O)C[C@@H](O)CC(=O)O[C@H]1C)C[C@H](O)[C@H]2C(=O)O", "strain or isolate": "12 strains", "result": "2 µg/mL"}
{"structure": "CC(=O)OCC1C=C(c2ccc(Cl)c(Cl)c2)C(=O)O1", "strain or isolate": "12 isolates", "result": "2 µg/mL"}
{"structure": "C[C@H]1[C@H](O)[C@@H](C)/C=C/C=C/C=C/C=C/C=C/C=C/C=C/[C@H](O[C@@H]2O[C@H](C)[C@@H](O)[C@H](N)[C@@H]2O)C[C@@H]2O[C@](O)(C[C@@H](O)C[C@@H](O)CC[C@H](O)[C@@H](O)C[C@@H](O)CC(=O)O[C@H]1C)C[C@H](O)[C@H]2C(=O)O", "strain or isolate": "314 isolates", "result": "0.5 µg/mL"}
{"structure": "C[C@@H](c1ncncc1F)[C@](O)(Cn1cncn1)c1ccc(F)cc1F", "strain or isolate": "35 isolates", "result": "1 µg/mL"}
{"structure": "CCC(C)n1ncn(-c2ccc(N3CCN(c4ccc(OC[C@H]5CO[C@](Cn6cncn6)(c6ccc(Cl)cc6Cl)O5)cc4)CC3)cc2)c1=O", "result": "1 µg/mL"}
{"structure": "CCCCCOc1ccc(-c2cc(-c3ccc(C(=O)N[C@H]4C[C@@H](O)[C@@H](O)NC(=O)[C@@H]5[C@@H](O)[C@@H](C)CN5C(=O)[C@H]([C@H](O)CC(N)=O)NC(=O)[C@H]([C@H](O)[C@@H](O)c5ccc(O)c(OS(=O)(=O)O)c5)NC(=O)[C@@H]5C[C@@H](O)CN5C(=O)[C@H]([C@@H](C)O)NC4=O)cc3)no2)cc1", "strain or isolate": "29 isolates", "result": "0.0156 µg/mL"}

For reference, 5 entries again:

structure,strain or isolate,result
CCC(C)n1ncn(-c2ccc(N3CCN(c4ccc(OC[C@H]5CO[C@](Cn6cncn6)(c6ccc(Cl)cc6Cl)O5)cc4)CC3)cc2)c1=O,94 isolates,0.4 µg/mL
Clc1ccc(COC(Cn2ccnc2)c2ccc(Cl)cc2Cl)c(Cl)c1,25 isolates,4 µg/mL
CCC(C)n1ncn(-c2ccc(N3CCN(c4ccc(OC[C@H]5CO[C@](Cn6cncn6)(c6ccc(Cl)cc6Cl)O5)cc4)CC3)cc2)c1=O,,1 µg/mL
C[C@@H](c1ncncc1F)[C@](O)(Cn1cncn1)c1ccc(F)cc1F,256 isolates,0.5 µg/mL
CC(=O)OCC1C=C(c2ccc(Cl)c(Cl)c2)C(=O)O1,12 isolates,2 µg/mL